Source: PubChem BioAssay AID504761 (Drosophila RNAi Screening Center, 2011)
The deposit covers about 22,000 reagents; shown is an unselected part of those that have a named target and a result. Over the whole deposit, 116 (0.52%) are marked active. 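Calls depend on retest data that are not deposited; infection was ranked per plate without normalising between plates; the unit of the infection score is not given.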 Raw values are not corrected between plates. Entries without a mark were called inactive. The numbers tell different reagents against one gene apart. Names joined by + are all predicted targets of the reagent. Reagent sequences are not shown. Not given: the amount of reagent, the time to read-out.

- Screen: 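Fly genes whose silencing reduces dengue virus type 2 infection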 (primary screen)
- Cell system: D.Mel-2 cells from Drosophila
- Knock-down reagent: long dsRNA against Drosophila genes
- Conditions: infection with dengue virus type 2; dose and infection time not stated
- Measurement: 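Cells stained for dengue envelope protein and imaged; percent of infected cells per well on duplicate plates, ranked by infection, with stained nuclei counted for cell number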
- Scale: infection score: higher = more virus-infected cells; cell count: higher = more cells in the well
- Call rule: 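Low infection ranks in the two replicates (chance level up to 0.065) followed by a retest with a 1.5-fold or larger significant decrease, p below 0.05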
- Meaning of the calls: active = confirmed: knock-down lowers infection; inactive = not picked or not confirmed

| infection score, replicate 1 | infection score, replicate 2 | cell count, replicate 1 | cell count, replicate 2 | gene knocked down | reagent |
| --- | --- | --- | --- | --- | --- |
| 1.98 | 2.1 | 6307 | 6706 | XRCC1 | 1 |
| 2.89 | 3.51 | 1420 | 1195 | XRCC1 | 2 |
| 2.62 | 7.71 | 6072 | 6395 | CG8236 | 1 |
| 3.6 | 1.35 | 6355 | 6142 | CG8236 | 2 |
| 10.1 | 9 | 6643 | 6425 | Psi (P-element somatic inhibitor) | 1 |
| 3.67 | 4.25 | 6270 | 6184 | Psi (P-element somatic inhibitor) | 2 |
| 10 | 13 | 6158 | 6175 | Grx3 (Glutaredoxin 3) | 1 |
| 6.05 | 11.2 | 6499 | 6403 | twf (twinfilin) | 1 |
| 30 | 31 | 5723 | 6612 | CG15353 | 1 |
| 3.41 | 1.42 | 6250 | 5967 | CG15353 | 2 |
| 10.3 | 21.9 | 6616 | 4920 | CG3732 | 1 |
| 7.67 | 2.25 | 6521 | 6141 | CG3732 | 2 |
| 0.36 | 4.53 | 6678 | 5872 | Lamtor4 (Late endosomal/lysosomal adaptor, MAPK and MTOR activator 4) | 1 |
| 3.03 | 1.95 | 5902 | 6302 | CG16898 | 1 |
| 1.86 | 2.47 | 6340 | 6163 | CG16898 | 2 |
| 4.29 | 14.1 | 6464 | 5475 | CG17207 | 1 |
| 32.9 | 14.4 | 4501 | 5838 | CG1698 | 1 |
| 2.35 | 3.63 | 5827 | 6276 | CG1698 | 2 |
| 1.89 | 15.7 | 6251 | 6215 | Reepl1 (Receptor accessory protein like 1) | 1 |
| 1.52 | 2.34 | 5208 | 6275 | Reepl1 (Receptor accessory protein like 1) | 2 |
| 3.67 | 2.01 | 5992 | 6109 | Pfdn2 (Prefoldin 2) | 1 |
| 9.83 | 11.2 | 6671 | 6251 | CG8298 | 1 |
| 10 | 6.37 | 6258 | 6266 | alt (aluminum tubes) | 1 |
| 4.95 | 7.35 | 5743 | 6242 | alt (aluminum tubes) | 2 |
| 6.35 | 4.17 | 6563 | 6733 | SP1173 | 1 |
| 0.56 | 0.03 | 6408 | 6305 | HmgZ (HMG protein Z) | 1 |
| 3.85 | 6.3 | 5978 | 6313 | HmgZ (HMG protein Z) | 2 |
| 20.5 | – | 5780 | 616 | CG4793 | 1 |
| 10.5 | 10.9 | 6138 | 6516 | escl | 1 |
| 2.59 | 1.85 | 6287 | 5953 | escl | 2 |
| 6.98 | 6.1 | 5949 | 6769 | Tasp1 (Taspase 1) | 1 |
| 3.01 | 6.29 | 6276 | 6602 | plx (pollux) | 1 |
| 20.5 | 17.1 | 6471 | 6308 | plx (pollux) | 2 |
| 4.96 | 25.3 | 7016 | 6099 | plx (pollux) | 3 |
| 5.56 | 23.8 | 1025 | 6105 | plx (pollux) | 4 |

Copied from the list:
CG8236 #1, cell count, replicate 2 → 6395
Entry for Tasp1 (Taspase 1) in “cell count, replicate 2”: 6769
Under “cell count, replicate 2”, twf (twinfilin) reads 6403
CG1698 #1, cell count, replicate 1 → 4501
CG8236 #2, cell count, replicate 2 = 6142
Under “infection score, replicate 2”, Reepl1 (Receptor accessory protein like 1) #1 shows 15.7

The listing continues.
| infection score, replicate 1 | infection score, replicate 2 | cell count, replicate 1 | cell count, replicate 2 | gene knocked down | reagent |
| --- | --- | --- | --- | --- | --- |
| 13.7 | 4.97 | 6372 | 6657 | CG7432 | 1 |
| 1.1 | 4.17 | 5456 | 5896 | NHP2 | 1 |
| 2.09 | 3.06 | 5301 | 5190 | NHP2 | 2 |
| 3.51 | 2.93 | 5975 | 6391 | Pink1 (PTEN-induced putative kinase 1) | 1 |
| 4.05 | 5.96 | 6564 | 6455 | Cyp9c1 (Cytochrome P450 9c1) | 1 |
| 3.87 | 1.84 | 6608 | 6673 | vito (viriato) | 1 |
| 6.55 | 11.4 | 6594 | 6310 | vito (viriato) | 2 |
| 4.5 | 5.17 | 5845 | 6242 | GABA-B-R1 (metabotropic GABA-B receptor subtype 1) | 1 |
| 2.69 | 9.36 | 6286 | 6560 | GatA (Glutamyl-tRNA amidotransferase, subunit A) | 1 |
| 1.27 | 5.09 | 6229 | 6818 | CG8026 | 1 |
| 2.9 | 11.2 | 6580 | 5604 | CG8026 | 2 |
| 3.7 | 8.09 | 6602 | 1928 | CG13847 | 1 |
| 2.7 | 0.89 | 6525 | 112 | Pi3K92E (Phosphatidylinositol 3-kinase 92E) | 1 |
| 3.9 | 13.3 | 6829 | 6181 | CG12746 | 1 |
| 16.6 | 8.4 | 5586 | 6473 | p38a (p38a MAP kinase) | 1 |
| 0.7 | 1.55 | 6303 | 6127 | ru (roughoid) | 1 |
| 8.41 | 7.63 | 6014 | 4968 | ru (roughoid) | 2 |
| 9.99 | 6.61 | 6495 | 6561 | CG14937 | 1 |
| 14.6 | 6.22 | 5651 | 7009 | jar (jaguar) | 1 |
| 2.44 | 17.4 | 903 | 4694 | CG15177 | 1 |
| 1.29 | 2.02 | 6267 | 6075 | CG15177 | 2 |
| 1.96 | 3.31 | 6331 | 5957 | PGRP-SC1a + PGRP-SC1b | 1 |
| 6.18 | 13.8 | 6688 | 5928 | Rad17 | 1 |
